Measurements taken from patent US20110064668A1, “J-superfamily conotoxin peptides” (published 2011).

Tests used:
Assay in all cases: cell-based or functional assay
[1] = target: α3β4 subtype of rat neuronal nAChR (rat) (UniProt P04757)
Kv1.6 channel = target: Kv1.6 channel
[2] = target: α1β1εδ subtype of mouse muscle nAChR (mouse) (UniProt P04756)

Substance	IC50 [1]	IC50 (Kv1.6 channel)	IC50 [2]
pl14a[Y19A] (peptide)	10.4 µM	32.7 µM	
pl14a[I15A] (peptide)	1.6 µM	45.5 µM	175 nM
pl14a[P20A] (peptide)	0.71 µM	2.22 µM	240 nM
pl14a[H17A] (peptide)	3.92 µM	4.6 µM	228 nM
pl14a[R12A] (peptide)	3.21 µM	6.54 µM	355 nM
pl14a[F21A] (peptide)	2.85 µM	2.41 µM	257 nM
pl14a[L9A] (peptide)	1.36 µM	2.26 µM	434 nM
